Pooled drug test results. Numbers come from NIAID ChemDB, via PubChem.

All rows: tests in culture

ECn: concentration that inhibits the pathogen or its effect by n%.

compound	method	tested at	measure	cell line	species	strain	value
CCO/N=C/c1ccc(OCCC2CCN(c3ccc(Cl)nn3)CC2)cc1	neutral red	-	EC50	KB	Rhinovirus	1059 (ICAM-1 receptor group 14)	0.052 µM
CC(=O)ONc1ccc(S(=O)(=O)N(CC(C)C)C[C@@H](O)[C@H](Cc2ccccc2)NC(=O)Cc2c[nH]c3ccccc23)cc1	MTT	-	EC50	CEM	SIV	-	1 µM
Nc1nc2c(ncn2COC(CO)CO)c(=O)[nH]1	hybridisation	-	EC50	MRC-5	Human cytomegalovirus	C9003	1.1 µM
CCOC(=O)c1sc2cc(-c3cc(F)c(Cl)cc3Cl)oc(=O)c2c1N	-	-	MIC	-	Trichophyton mentagrophytes	A-280	>100 µg/mL
O=c1[nH]c(=O)n([C@@H]2O[C@H](CO)[C@@H](O)[C@@H]2O)cc1/C=C/Br	cytopathic effect	-	EC50	HEL	Varicella zoster virus	Oka CF1743-resistant	>57 µM
O=c1[nH]cnc2c1ncn2[C@@H]1O[C@H](CO)[C@@H](O)[C@H]1O	-	100 µM	inhibition	-	Pneumocystis carinii	-	30%
CC(C)Nc1nc2cc(Cl)c(Cl)cc2n1[C@H]1O[C@@H](CO)[C@H](O)[C@@H]1O	plaque count	-	EC50	HFF	Guinea pig cytomegalovirus	-	>53 µM
CC(C)CN(C[C@H](O)C[C@@H](CNC(C)(C)C)Cc1ccccc1)S(=O)(=O)c1ccccc1	p24	-	EC90	CEM	HIV-1	IIIB	1 µM
CC(C)(O)c1cn(-c2ccccc2)nn1	broth dilution	2048 µg/mL	inhibition	-	Candida albicans	URM 4127	0%
Cn1cc(C(=O)NCc2ccc(Cl)cc2)c(=O)c2cc(CN3CCOCC3)ccc21	plaque count	-	EC50	REF	Rat cytomegalovirus	-	0.2 µM
CC(C)(O)c1cn(-c2cccc3ccccc23)nn1	broth dilution	2048 µg/mL	inhibition	-	Candida albicans	URM 3716	0%
Cc1nc(CC(=O)NN)nn1C	-	-	MIC	-	Respiratory syncytial virus	-	>400 µg/mL
O[C@@H]1[C@H](O)[C@H](O)CO[C@H]1n1c(Br)nc2cc(Cl)c(Cl)cc21	plaque count	-	EC50	HFF	Rhesus cytomegalovirus	-	6.3 µM
O=C(O)CP(=O)(O)O	cytopathic effect	-	EC50	HEL	Varicella zoster virus	Oka BVDU-resistant	59.3 µM
CC(C)Nc1nc2cc(Cl)c(Cl)cc2n1[C@H]1O[C@@H](CO)[C@H](O)[C@@H]1O	hybridisation	-	EC50	MRC-5	Human cytomegalovirus	9219REC7 (LEU595DEL)	0.2 µM
COc1ccc(S(=O)(=O)N(CC2CCCC2)C[C@@H](O)CN(CCc2ccc(O)cc2)C(=O)O[C@H]2CCOC2)cc1	p24	-	EC90	CEM	HIV-1	IIIB	0.1 µM
Clc1ccccc1C(c1ccccc1)(c1ccccc1)n1ccnc1	agar diffusion	10 µg/disc	zone	-	Aspergillus ochraceus	-	30 mm
CCOC(=O)c1sc(SC)cc1-c1ccc(F)cc1	-	-	MIC	-	Trichophyton mentagrophytes	A-280	>100 µg/mL
COc1nc(N)nc2c1ncn2OCCOCP(=O)(O)O	-	-	MIC	-	Maedi-visna virus	K184	0.003 µM
C=CCc1ccc(OC)c(OC)c1	turbidity	-	MIC90	-	Candida albicans	3081	345 µg/mL
CC1(C)CC(=O)C2=C(C1)Nc1c(O)cccc1N(C(=O)c1nccnc1N)C2c1ccc(OCc2ccccc2)cc1F	luciferase / reporter gene / replicon	-	EC50	-	Hepatitis C virus	1b	1.03 µM
Nc1nc(Cl)c2ncn(OCCOCP(=O)(O)O)c2n1	-	-	MIC	-	Maedi-visna virus	K184	0.009 µM
NNC(=O)Cc1nc2n(n1)CCCCC2	-	-	MIC	-	Reovirus	TYPE 1	>16 µg/mL
CC(=O)ONc1ccc(S(=O)(=O)N(CC(C)C)C[C@@H](O)[C@H](Cc2ccccc2)NC(=O)CCCc2c[nH]c3ccccc23)cc1	MTT	-	EC50	CEM	SIV	-	6.8 µM
COc1c(N2CCNC(C)C2)c(F)cc2c(=O)c(C(=O)O)cn(C3CC3)c12	-	-	MIC90	-	Klebsiella pneumoniae	58 strains	0.5 µg/mL
CC(=O)ONc1ccc(S(=O)(=O)N(CC(C)C)C[C@@H](O)[C@H](Cc2ccccc2)NC(=O)CN2C(=O)c3ccccc3C2=O)cc1	MTT	-	EC50	CEM	SIV	-	2 µM
Nc1nc2c(ncn2CCC(CO)CO)c(=O)[nH]1	cytopathic effect	-	EC50	HEL	Varicella zoster virus	Clinical isolate VZV-24	1.67 µM
Cc1cn([C@H]2C[C@H](N=[N+]=[N-])[C@@H](CO)O2)c(=O)[nH]c1=O	-	-	MIC	-	Maedi-visna virus	K184	5.6 µM
C=C/C(C)=C/[C@@]1(C)SC(=O)C(C)=C1O	-	-	MIC	-	Escherichia coli	UB1005/PEMR2.6	200 µM
OC[C@H]1O[C@@H](n2c(Br)nc3cc(Cl)c(Cl)cc32)[C@H](O)[C@@H]1O	plaque count	-	EC50	HFF	Guinea pig cytomegalovirus	-	2 µM
COc1ccc(S(=O)(=O)N(CC(C)C)C[C@@H](O)CCN(CC2CCCC2)S(=O)(=O)c2ccncc2)cc1	p24	-	EC90	CEM	HIV-1	IIIB	1 µM
Nc1ncnc2c1ncn2OCC(CO)OCP(=O)(O)O	-	-	MIC	-	Maedi-visna virus	K184	3.1 µM
CC1(C)CC(=O)C2=C(C1)Nc1c(O)cccc1NC2c1ccc(OCc2cccc(F)c2)cc1F	luciferase / reporter gene / replicon	-	EC50	-	Hepatitis C virus	1b	3.9 µM
Nc1nc2c(ncn2OCCOCP(=O)(O)O)c(=O)[nH]1	-	-	MIC	-	Maedi-visna virus	K184	0.007 µM
CCn1nc(CC(=O)NN=C(C)C)nc1C	-	-	MIC	-	Sindbis virus	-	>80 µg/mL
CCOC(=O)c1sc(SC)c(C(=O)OC)c1O	-	-	MIC	-	Trichophyton mentagrophytes	A-280	6.25 µg/mL
CCn1nc(Cc2n[nH]c(=S)o2)nc1C	-	-	MIC	-	Reovirus	TYPE 1	>400 µg/mL
CCOC(=O)c1sc2cc(-c3ccc(Br)cc3)oc(=O)c2c1N	-	-	MIC	-	Trichophyton mentagrophytes	A-280	>100 µg/mL
Cc1cccc(C(=O)N2c3cccc(O)c3NC3=C(C(=O)CC(C)(C)C3)C2c2ccc(OCc3ccc(F)cc3)cc2F)n1	luciferase / reporter gene / replicon	-	EC50	-	Hepatitis C virus	1b	2.41 µM
CCc1nc(CC(=O)NN=C(C)C)nn1CC	-	-	MIC	-	Coxsackie virus	B4	>400 µg/mL
CCOC(=O)/C=C/[C@H](C[C@@H]1CCNC1=O)NC(=O)[C@@H](CC(=O)[C@@H](NC(=O)c1cc(C)on1)C(C)C)Cc1ccc(F)cc1	cytopathic effect / visual reading	-	EC50	OHIO HELA-I	Rhinovirus	Isolate 4	0.01 µg/mL
CCn1nc(CC(=O)N/N=C/c2ccco2)nc1C	-	-	MIC	-	Sindbis virus	-	>80 µg/mL
Nc1nc2c(ccn2[C@@H]2C[C@H](CO)[C@H](O)[C@@H]2O)c(=O)[nH]1	-	-	MIC	-	Parainfluenza virus	-	>100 µg/mL
Nc1nc2c(ncn2COC(CO)CO)c(=O)[nH]1	hybridisation	0.3 µM	inhibition	HFF	Cytomegalovirus	AD169	6%
O=C(N[C@@H](Cc1ccccc1)C(=O)C(F)(F)C(Cc1ccccc1)NS(=O)(=O)c1ccccc1)O[C@H]1CCOC1	p24	-	EC90	CEM	HIV-1	IIIB	1 µM
CSc1cc(-c2ccc(-c3cccnc3)cc2)c(C(=O)O)s1	-	-	MIC	-	Trichophyton mentagrophytes	A-280	>100 µg/mL
Nc1nc2c(ncn2[C@H]2C[C@H](F)[C@@H](CO)O2)c(=O)[nH]1	-	-	EC50	Primary duck hepatocytes	Duck hepatitis B virus	-	0.05 µM
O=C(O)P(=O)(O)O	cytopathic effect	-	EC50	HEL	Varicella zoster virus	Oka penciclovir-resistant/A	326.3 µM
CC(C)CN(C[C@@H](O)[C@H](Cc1ccccc1)NC(=O)COc1ccc2ccccc2c1)S(=O)(=O)c1ccc(Br)cc1	MTT	-	EC50	CEM	SIV	-	12.3 µM
O=C(NCc1ccc(Cl)cc1)c1c[nH]c2ccc(CCCO)cc2c1=O	plaque count	-	EC50	-	Varicella zoster virus	DYE	0.1 µM
CC(=O)ONc1ccc(S(=O)(=O)N(CC(C)C)C[C@@H](O)[C@H](Cc2ccccc2)NC(=O)CCCN2C(=O)c3ccccc3C2=O)cc1	MTT	-	EC50	CEM	SIV	-	5.6 µM
Nc1nc2c(ncn2COC(CO)CO)c(=O)[nH]1	-	-	EC50	MRC-5	Cytomegalovirus	295	8.1 µM
CCOC(=O)c1sc(SC)c(C#N)c1N	-	-	MIC	-	Trichophyton mentagrophytes	A-280	>100 µg/mL
COc1ccc(S(=O)(=O)N(CC2CCCC2)C[C@@H](O)CN(CCc2ccccc2)C(=O)Oc2ccccc2)cc1	p24	-	EC90	CEM	HIV-1	IIIB	1 µM
CCOC(=O)c1sc(SC)cc1-c1ccccc1	-	-	MIC	-	Trichophyton mentagrophytes	A-280	>100 µg/mL
CC(C)(O)c1cn(-c2ccc([N+](=O)[O-])cc2)nn1	broth dilution	2048 µg/mL	inhibition	-	Candida parapsilosis	URM 3624	0%
Nc1nc2c(ncn2COCCO)c(=O)[nH]1	plaque count	-	EC50	VERO	Simian varicella-zoster virus	-	>25 µM
CC(=O)ONc1ccc(S(=O)(=O)N(CC(C)C)C[C@@H](O)[C@H](Cc2ccccc2)NC(=O)CCn2c(=O)oc3ccccc32)cc1	MTT	-	EC50	CEM	SIV	-	0.8 µM
CCOC(=O)c1sc2cc(-c3ccc([N+](=O)[O-])cc3)oc(=O)c2c1N	-	-	MIC	-	Trichophyton mentagrophytes	A-280	>100 µg/mL
Nc1nc2c(ncn2COC(CO)CO)c(=O)[nH]1	-	0.3 µM	inhibition	HEL	Cytomegalovirus	-	46%
CCCCCCCCCCCCCCCCCCCCCCOCC(C)(COCCCCCCCCCCCCCCCCCCCCCC)CO[C@]1(C(=O)O)C[C@H](OS(=O)(=O)O)[C@@H](NC(C)=O)[C@H]([C@H](OS(=O)(=O)O)[C@@H](COS(=O)(=O)O)OS(=O)(=O)O)O1	plaque count	-	EC50	MA-104	Rotavirus	DS-1 (serotype 2)	4.7 µg/mL
CC(C)CN(C[C@@H](O)[C@H](Cc1ccccc1)NC(=O)CCN1C(=O)c2ccccc2C1=O)S(=O)(=O)c1ccc(Br)cc1	MTT	-	EC50	CEM	SIV	-	3.8 µM

Again, the opening 8 rows:

compound | method | tested at | measure | cell line | species | strain | value
CCO/N=C/c1ccc(OCCC2CCN(c3ccc(Cl)nn3)CC2)cc1 | neutral red | - | EC50 | KB | Rhinovirus | 1059 (ICAM-1 receptor group 14) | 0.052 µM
CC(=O)ONc1ccc(S(=O)(=O)N(CC(C)C)C[C@@H](O)[C@H](Cc2ccccc2)NC(=O)Cc2c[nH]c3ccccc23)cc1 | MTT | - | EC50 | CEM | SIV | - | 1 µM
Nc1nc2c(ncn2COC(CO)CO)c(=O)[nH]1 | hybridisation | - | EC50 | MRC-5 | Human cytomegalovirus | C9003 | 1.1 µM
CCOC(=O)c1sc2cc(-c3cc(F)c(Cl)cc3Cl)oc(=O)c2c1N | - | - | MIC | - | Trichophyton mentagrophytes | A-280 | >100 µg/mL
O=c1[nH]c(=O)n([C@@H]2O[C@H](CO)[C@@H](O)[C@@H]2O)cc1/C=C/Br | cytopathic effect | - | EC50 | HEL | Varicella zoster virus | Oka CF1743-resistant | >57 µM
O=c1[nH]cnc2c1ncn2[C@@H]1O[C@H](CO)[C@@H](O)[C@H]1O | - | 100 µM | inhibition | - | Pneumocystis carinii | - | 30%
CC(C)Nc1nc2cc(Cl)c(Cl)cc2n1[C@H]1O[C@@H](CO)[C@H](O)[C@@H]1O | plaque count | - | EC50 | HFF | Guinea pig cytomegalovirus | - | >53 µM
CC(C)CN(C[C@H](O)C[C@@H](CNC(C)(C)C)Cc1ccccc1)S(=O)(=O)c1ccccc1 | p24 | - | EC90 | CEM | HIV-1 | IIIB | 1 µM

A number after MIC or MFC names an inhibition level or a share of isolates. Blank or dashed fields: not listed here. Inhibition is in % at the dose shown (toxicity tests: loss of growth or viability). Zones are inhibition diameters on agar. Lines come from different laboratories, so protocols vary.